A mixed list of measured activities; the numbers were collected in NIAID ChemDB.

All rows: growth or infection tests; species: Mycobacterium smegmatis

Conditions beyond the fields shown may differ between rows. MIC50, MIC90 and the like: level of inhibition, or share of isolates inhibited. An empty or dashed field is not shown.

structure,measure,strain or isolate,method,result
CO[C@H]1/C=C/O[C@@]2(C)Oc3c(C)c(O)c4c(O)c(c(/C=N/N5CCN(C)CC5)c(O)c4c3C2=O)NC(=O)/C(C)=C\C=C\[C@H](C)[C@H](O)[C@@H](C)[C@@H](O)[C@@H](C)[C@H](OC(C)=O)[C@@H]1C,MIC,-,visual reading,8 µg/mL
COC(=O)C(C)c1ccc2[nH]c3ccc(Cl)cc3c2c1,MIC99,-,resazurin / visual reading / absorbance,>500 µg/mL
CO[C@H]1/C=C/O[C@@]2(C)Oc3c(C)c(O)c4c(O)c(c(/C=N/N5CCN(C)CC5)c(O)c4c3C2=O)NC(=O)/C(C)=C\C=C\[C@H](C)[C@H](O)[C@@H](C)[C@@H](O)[C@@H](C)[C@H](OC(C)=O)[C@@H]1C,MIC,-,resazurin,>100 µM
Cc1cc(CN2CCN(C)CC2)c(C)n1Cc1ccccc1,MIC,103599,-,>64 µg/mL
O=c1c(-c2ccc(C(F)(F)F)cc2)c(/C=C/c2cn(-c3ccccc3)nc2-c2cccc(Br)c2)nc2sccn12,MIC,mc2155,colony count,57 µg/mL
COc1c(N2CCNC(C)C2)c(F)cc2c(=O)c(C(=O)O)cn(C3CC3)c12,MIC99,KD2012 (GYRA G89A),-,0.18 µg/mL
Cc1ccc(-c2ccc(Cl)cc2)n1Cc1ccccc1,MIC,103599,-,>16 µg/mL
CCCCCC/C1=C\c2csc(n2)[C@H](C)[C@@H](O)C[C@H](O)/C=C/C=C\C[C@H](O)[C@H]([C@H](O)[C@@H](C)/C=C(C)/C=C(\C)C(C)OC)OC1=O,MIC,-,visual reading,32 µg/mL
CC1CN(c2cc3c(cc2F)c(=O)c(C(=O)O)cn3C2CC2)CC(C)N1,MIC99,KD2008 (GYRA G89C),-,3.8 µg/mL
Nc1cccc(-c2csc3nc(Nc4ccc(S(=O)(=O)O)cc4)cc(=O)n23)c1,MIC,-,broth dilution / visual reading,100 µg/mL
Cc1[nH]c(-c2ccc(Cl)cc2)cc1CN1CCN(C)CC1,MIC,103599,-,>64 µg/mL
COc1cccc(-c2nn(-c3ccccc3)cc2/C=C/c2nc3sccn3c(=O)c2-c2ccc(C(F)(F)F)cc2)c1,MIC,mc2155,colony count,47 µg/mL
CN[C@@H]1[C@H](O[C@H]2[C@H](O[C@H]3[C@H](O)[C@@H](O)[C@H](N=C(N)N)[C@@H](O)[C@@H]3N=C(N)N)O[C@@H](C)[C@]2(O)C=O)O[C@@H](CO)[C@H](O)[C@H]1O,MIC,mc2155,resazurin,0.1 µM
COc1cc2c3c(ccnc3c1OC)NC=C2,MIC,mc2155,MTT / low oxygen / turbidity,200 µg/mL
C=C[C@]1(C)C=C2c3c[nH]c4cccc(c34)C(C)(C)[C@H]2C[C@H]1O,MIC,-,-,>100 µM
Cc1ccc(-c2ccc(Cl)cc2)[nH]1,MIC,103599,-,4 µg/mL
CC/C(C)=C(/NC(=O)[C@H](C)NC(=O)[C@@H]1CCC=NN1C(=O)[C@@H](NC(=O)[C@H](C)NC(=O)C(N)(CO)CO)[C@H](C)N)C(=O)N[C@@H](CO)C(=O)O,MIC,ATCC 607,-,12.5 µg/mL
CC1CN(c2c(F)cc3c(=O)c(C(=O)O)cn(C4CC4)c3c2F)CC(C)N1,MIC99,KD1998 (GYRA D95N),-,1.3 µg/mL
Cc1c(N2CCC(CN)C2)c(F)cn2c(=O)c(C(=O)O)cc(C3CC3)c12.Cl,MIC,ATCC114,-,0.1 µg/mL
COc1cc(O)cc(/C=C/c2cc3ccccc3s2)c1,MIC,-,broth dilution,32 µg/mL
COc1nc2ccc(Br)cc2cc1[C@@H](c1ccccc1)[C@@](O)(CCN(C)C)c1cccc2ccccc12,MIC80,delta-cyt-bc1,broth dilution,0.06 µM
C[C@H]1COC2(CCN(c3nc(=O)c4cc(C(F)(F)F)cc(C(=O)O)c4s3)CC2)O1,MIC99,GM22,resazurin,0.031 µg/mL
CC(CC(=O)N(C)O)CP(=O)(O)O,MIC,ATCC 607,broth dilution / turbidity,>250 µM
Cc1ccc(Nc2cc(=O)n3c(-c4cccc(N)c4)csc3n2)cc1,MIC,-,broth dilution / visual reading,800 µg/mL
CC1CN(c2cc3c(cc2F)c(=O)c(C(=O)O)cn3C2CC2)CCN1,MIC99,KD1995 (GYRA D95H),-,2.7 µg/mL
Cc1c(CN2CCOCC2)cc(-c2ccc(Cl)cc2)n1Cc1ccccc1,MIC,103599,-,>64 µg/mL
C[C@H]1COC2(CCN(C3=NC(=O)c4cc(C(F)(F)F)cc([N+](=O)[O-])c4S3(=O)=O)CC2)O1,MIC,mc2155,broth dilution / turbidity,>0.5 µg/mL
NNC(=O)c1ccncc1,MIC,mc2155,MTT / low oxygen / turbidity,25 µg/mL
NCC[C@H](O)C(=O)N[C@@H]1C[C@H](N)[C@@H](O[C@H]2O[C@H](CN)[C@@H](O)[C@H](O)[C@H]2O)[C@H](O)[C@H]1O[C@H]1O[C@H](CO)[C@@H](O)[C@H](N)[C@H]1O,MIC,A28314,-,0.25 µg/mL
C/C=C(C)/C=C(\C)[C@@H](O)[C@H](C)[C@@H](O)[C@@H]1OC(=O)/C(CCCCCC)=C/c2csc(n2)[C@H](C)[C@@H](O)C[C@H](O)/C=C/C=C\C[C@@H]1O,MIC,-,visual reading,64 µg/mL
CCC(O)CNCCNCC(O)CC,MIC,ATCC 607,-,>250 µg/mL
NNC(=O)c1ccncc1,MIC,-,resazurin,>100 µM
COc1cccc(-c2ccc3[nH]c4cc(C(C)C(=O)O)ccc4c3c2)c1,MIC99,-,resazurin / visual reading / absorbance,>500 µg/mL
O[C@@H]1CCCCC1NCCNC1CCCC[C@@H]1O,MIC,ATCC 607,-,250 µg/mL
NC(=O)c1c(NC(=O)C2CC2)sc2cc(O)c(Br)cc12,MIC,mc2155,resazurin / absorbance,>100 µM
Cc1onc(-c2ccccc2)c1C(=O)N[C@@H]1C(=O)N2[C@@H]1SC(C)(C)[C@@H]2C(=O)O,MIC,mc2155,resazurin,256 µg/mL
Cc1c(N2CC3CCCNC3C2)c(F)cn2c(=O)c(C(=O)O)cc(C3CC3)c12,MIC,ATCC114,-,0.1 µg/mL
N#CC(C#N)=NNc1cccc(Cl)c1,MIC,mc2 155 / ATCC 700084,broth dilution,25 µg/mL
Cc1c(N2CC3CCC(C)(N)C3C2)c(F)cn2c(=O)c(C(=O)O)cc(C3CC3)c12.Cl,MIC,ATCC114,-,0.01 µg/mL
CCC1CN(c2c(F)cc3c(=O)c(C(=O)O)cn(C4CC4)c3c2OC)CCN1,MIC99,KD1998 (GYRA D95N),-,0.63 µg/mL
CC(C(=O)O)c1ccc2c(c1)[nH]c1ccc(-c3ccccc3)cc12,MIC99,-,resazurin / visual reading / absorbance,>500 µg/mL
CCCCCCn1c(-c2ccc(Cl)cc2)cc(CN2CCN(C)CC2)c1C,MIC,103599,-,8 µg/mL
O=c1cc(Nc2ccc(S(=O)(=O)O)cc2)nc2scc(-c3cccc([N+](=O)[O-])c3)n12,MIC,-,broth dilution / visual reading,>800 µg/mL
CCCCCCn1c(C)ccc1C,MIC,103599,-,>16 µg/mL
c1ccc(Nc2nc(-c3ccccn3)cs2)nc1,MIC99,-,visual reading,2.5 µM
COC1=Nc2c(OC)c(OC)cc3ccnc(c23)C1=O,MIC,mc2155,MTT / low oxygen / turbidity,6.25 µg/mL
Cc1c(N2CCCC3(C2)OCCO3)c(F)cn2c(=O)c(C(=O)O)cc(C3CC3)c12,MIC,ATCC114,-,0.39 µg/mL
COc1c(N2CC(C)NC(C)C2)c(F)cc2c(=O)c(C(=O)O)cn(C3CC3)c12,MIC99,KD2012 (GYRA G89A),-,0.18 µg/mL
COc1ccc(-c2nn(-c3ccccc3)cc2/C=C/c2nc3sccn3c(=O)c2-c2ccc(C#N)cc2)cc1,MIC,mc2155,colony count,78 µg/mL
O=c1cc(Nc2ccc(S(=O)(=O)O)cc2)nc2scc(-c3ccc([N+](=O)[O-])cc3)n12,MIC,-,broth dilution / visual reading,>800 µg/mL
O=C(O)c1cc(C(F)(F)F)cc2c(=O)nc(N3CCN(CC4CCCCC4)CC3)sc12,MIC99,MN84,resazurin,>100 µg/mL
CCCCCCn1c(C)c(CN2CCN(C)CC2)c(CN2CCN(C)CC2)c1-c1ccc(Cl)cc1,MIC,103599,-,>64 µg/mL
Cc1ccc(-c2ccc3[nH]c4cc(C(C)C(=O)O)ccc4c3c2)cc1,MIC99,-,resazurin / visual reading / absorbance,>500 µg/mL
CNc1ccc2oc(C[C@@H]3OC4(CC[C@@H]3C)O[C@H](C(C)C(=O)c3ccc[nH]3)[C@H](C)C[C@H]4C)nc2c1C(=O)O,MIC,mc2155,resazurin,0.31 µg/mL
CC(CO)NCCNC(C)CO,MIC,ATCC 607,-,15 µg/mL
O=C(O)Cc1ccc2[nH]c3ccc(C(F)(F)F)cc3c2c1,MIC99,-,resazurin / visual reading / absorbance,>500 µg/mL
Cc1c(N2CCC(C3(N)CC3)C2)c(F)cn2c(=O)c(C(=O)O)cc(C3CC3)c12.Cl,MIC,ATCC114,-,0.01 µg/mL
Cc1c(CN2CCN(C)CC2)c(CN2CCN(C)CC2)c(-c2ccc(Cl)cc2)n1Cc1ccccc1,MIC,103599,-,16 µg/mL
Oc1ccccc1NCCNc1ccccc1O,MIC,ATCC 607,-,125 µg/mL
COc1c(N2CCNCC2)c(F)cc2c(=O)c(C(=O)O)cn(C3CC3)c12,MIC99,KD2012 (GYRA G89A),-,0.18 µg/mL
Cc1ccccc1-c1nn(-c2ccccc2)cc1/C=C/c1nc2sccn2c(=O)c1-c1ccc(C#N)cc1,MIC,mc2155,colony count,17 µg/mL
NNC(=O)c1ccncc1,MIC,mc2155,resazurin,125 µM
N#Cc1ccc(-c2c(/C=C/c3cn(-c4ccccc4)nc3-c3ccc(Br)cc3)nc3sccn3c2=O)cc1,MIC,mc2155,colony count,74 µg/mL
O=C(CSc1nnc2scc(-c3ccccc3)n12)Nc1ccc(N2CCCC2)cc1,MIC,-,absorbance,410.7 µM
CC[C@@H](O)CNCCNC[C@@H](O)CC,MIC,ATCC 607,-,>250 µg/mL
CO[C@H]1/C=C/O[C@@]2(C)Oc3c(C)c(O)c4c(O)c(c(/C=N/N5CCN(C)CC5)c(O)c4c3C2=O)NC(=O)/C(C)=C\C=C\[C@H](C)[C@H](O)[C@@H](C)[C@@H](O)[C@@H](C)[C@H](OC(C)=O)[C@@H]1C,MIC,-,broth dilution / visual reading,25 µg/mL
O=C(O)Cc1ccc2[nH]c3ccc(Cl)cc3c2c1,MIC99,-,resazurin / visual reading / absorbance,500 µg/mL
N#Cc1ccc(-c2c(/C=C/c3cn(-c4ccc(Cl)cc4)nc3-c3ccccc3)nc3sccn3c2=O)cc1,MIC,mc2155,colony count,21 µg/mL
CCC(CO)N(CC)CCNC(C)C,MIC,ATCC 607,-,250 µg/mL
O=C(O)Cc1ccc2[nH]c3ccc(Br)cc3c2c1,MIC99,-,resazurin / visual reading / absorbance,>250 µg/mL
Cc1c(N2CCCC(CF)C2)c(F)cn2c(=O)c(C(=O)O)cc(C3CC3)c12,MIC,ATCC114,-,0.2 µg/mL
CC(C(=O)O)c1ccc2c(c1)[nH]c1ccc(N3CCOCC3)cc12,MIC99,-,resazurin / visual reading / absorbance,>250 µg/mL
CCC[C@H](N)[C@@H]1CCN(c2c(F)cn3c(=O)c(C(=O)O)cc(C4CC4)c3c2C)C1.Cl,MIC,ATCC114,-,0.1 µg/mL
N#Cc1ccc(-c2c(/C=C/c3cn(-c4ccccc4)nc3-c3cccc(Br)c3)nc3sccn3c2=O)cc1,MIC,mc2155,colony count,49 µg/mL
O=C(O)c1cn(C2CC2)c2c(F)c(N3CCNCC3)c(F)cc2c1=O,MIC99,KD1998 (GYRA D95N),-,1.3 µg/mL
CCN(CC)CCCC(C)Nc1ccnc2cc(Cl)ccc12,MIC,mc2155,resazurin,320 µM

Repeating the final 8 entries:

| structure | measure | strain or isolate | method | result |
|---|---|---|---|---|
| CCC(CO)N(CC)CCNC(C)C | MIC | ATCC 607 | - | 250 µg/mL |
| O=C(O)Cc1ccc2[nH]c3ccc(Br)cc3c2c1 | MIC99 | - | resazurin / visual reading / absorbance | >250 µg/mL |
| Cc1c(N2CCCC(CF)C2)c(F)cn2c(=O)c(C(=O)O)cc(C3CC3)c12 | MIC | ATCC114 | - | 0.2 µg/mL |
| CC(C(=O)O)c1ccc2c(c1)[nH]c1ccc(N3CCOCC3)cc12 | MIC99 | - | resazurin / visual reading / absorbance | >250 µg/mL |
| CCC[C@H](N)[C@@H]1CCN(c2c(F)cn3c(=O)c(C(=O)O)cc(C4CC4)c3c2C)C1.Cl | MIC | ATCC114 | - | 0.1 µg/mL |
| N#Cc1ccc(-c2c(/C=C/c3cn(-c4ccccc4)nc3-c3cccc(Br)c3)nc3sccn3c2=O)cc1 | MIC | mc2155 | colony count | 49 µg/mL |
| O=C(O)c1cn(C2CC2)c2c(F)c(N3CCNCC3)c(F)cc2c1=O | MIC99 | KD1998 (GYRA D95N) | - | 1.3 µg/mL |
| CCN(CC)CCCC(C)Nc1ccnc2cc(Cl)ccc12 | MIC | mc2155 | resazurin | 320 µM |